Experiment: Chlorine blow off after TCM washdown / direct application

## trichloromelamine [TCM]
Example 5: 200 ppm TCM washdown
  chlorine blowoff: No chlorine blow off was detected
Example 6: initial washdown or subsequent direct applications
  chlorine blowoff: No chlorine blowoff was detected
